PubChem BioAssay AID624099, ICCB-Longwood – 2012
The whole screen tested about 21,000 reagents; shown is a random part of them. In the full data, 497 (2.4%) are marked active. 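Higher z means weaker E2 silencing; only reporter increases were scored, and knock-downs that hurt cell survival may mask genuine repressor factors.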 Unmarked entries are inactive. The numbers tell different reagents against one gene apart.

Test: 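Host factors E2 relies on to silence an HPV18 LCR reporter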 (primary screen)
Cells: human C33A cervical carcinoma cells (HPV-negative) stably expressing BPV1 E2 and an HPV18 LCR luciferase reporter
Knock-down reagent: siRNA pool against human genes, 40 nM
Duration: 72 h
Measured: 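Per-well luciferase luminescence, z-scored on each plate against the plate mean and SD with control wells left out, then averaged across three replicate plates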
Scale: mean z-score and z-score: higher = stronger reporter signal, weaker E2 silencing
Call rule: 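Hit if mean z-score reaches 2 and two or more of three replicate z-scores also reach 2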

gene	pool no.	mean z-score	z-score, replicate A	z-score, replicate B	z-score, replicate C
SYT4 (GeneID 6860)	1	-0.39	-0.28	-0.47	-0.43
LOC391540 (retired record) (GeneID 391540)	1	0.03	-0.15	0.18	0.08
BRICD5 (GeneID 283870)	1	2.17 (active)	1.6	2.42	2.48
LTB4R (GeneID 1241)	1	0.49	0.4	0.06	1.01
OVGP1 (GeneID 5016)	1	-0.72	0.01	0.08	-2.26
NDST3 (GeneID 9348)	1	-0.15	-0.06	-0.03	-0.36
ZNF839 (GeneID 55778)	1	0.52	0.72	0.39	0.45
FBXL4 (GeneID 26235)	1	0.75	0.7	0.76	0.8
RHPN2 (GeneID 85415)	1	-0.26	-0.1	-0.46	-0.23
ATP6V1F (GeneID 9296)	1	-0.9	-0.45	-1.29	-0.97
ZNF454 (GeneID 285676)	1	1.07	0.96	0.94	1.3
CIMAP3 (GeneID 128344)	1	-0.29	-0.21	-0.17	-0.49
LOC401860 (retired record) (GeneID 401860)	1	-0.19	0	0	-0.56
VGLL2 (GeneID 245806)	1	1.49	1.09	1.66	1.72
TNF (GeneID 7124)	1	0.2	-0.1	0.3	0.39
RREB1 (GeneID 6239)	1	-1.39	-1.68	-1.4	-1.1
DNAJA3 (GeneID 9093)	1	0.04	0.37	-0.29	0.05
UGP2 (GeneID 7360)	1	1.5	1.6	1.16	1.74
MMP23B (GeneID 8510)	1	-1.05	-0.97	-1.04	-1.15
SMC4 (GeneID 10051)	1	-0.63	-0.94	-0.23	-0.72
ZNF548 (GeneID 147694)	1	-1.49	-1.83	-1.14	-1.49
TFB2M (GeneID 64216)	1	-1.54	-1.78	-1.42	-1.43
VANGL2 (GeneID 57216)	1	-0.2	-0.18	-0.08	-0.33
MTDH (GeneID 92140)	1	0.42	0.68	0.34	0.24
LINC02139 (GeneID 400548)	1	0.08	0.04	0.2	-0.01
PAX3 (GeneID 5077)	1	0.52	0.52	0.63	0.42
SLC39A1 (GeneID 27173)	1	-0.79	-0.79	-0.44	-1.14
LOC388180 (retired record) (GeneID 388180)	1	2.06	2.34	1.9	1.94
UGT1A9 (GeneID 54600)	1	2.19 (active)	1.91	2	2.67
LYZL2 (GeneID 119180)	1	-1.33	-1.21	-1.34	-1.44
DUSP12 (GeneID 11266)	1	-0.5	-0.52	-0.64	-0.35
LILRA4 (GeneID 23547)	1	0.6	0.49	0.6	0.71
DTD2 (GeneID 112487)	1	0.03	-0.22	0.25	0.05
GATA2 (GeneID 2624)	1	-0.89	-0.65	-1.06	-0.97
MCUR1 (GeneID 63933)	1	0.18	0.02	0.38	0.13
PPP4R3B (GeneID 57223)	1	0.99	0.88	0.85	1.25
ARHGAP42 (GeneID 143872)	1	1.49	1.54	1.47	1.45
ARHGAP42 (GeneID 143872)	2	0.57	0.45	0.35	0.91
CLK2 (GeneID 1196)	1	-0.25	0	-0.21	-0.55
TCEAL3 (GeneID 85012)	1	-0.51	-0.52	-0.76	-0.26
PGAM2 (GeneID 5224)	1	-0.72	-0.31	-0.84	-1.02
MRM2 (GeneID 29960)	1	2.63 (active)	1.61	2.42	3.86
ZNF823 (GeneID 55552)	1	-0.14	-0.1	-0.19	-0.12
ARPP19 (GeneID 10776)	1	-0.82	-0.87	-0.84	-0.74
INTS4P1 (GeneID 285905)	1	1.13	0.97	1.25	1.16
KAT2A (GeneID 2648)	1	-0.23	-0.18	-0.11	-0.4
RGS18 (GeneID 64407)	1	-0.07	0.1	-0.35	0.05
TGFA (GeneID 7039)	1	-0.05	-0.01	-0.12	-0.03
ACACB (GeneID 32)	1	-0.6	-0.31	-0.56	-0.94
VPS26A (GeneID 9559)	1	-0.49	-0.46	-0.51	-0.51
IP6K2 (GeneID 51447)	1	0.54	0.33	0.58	0.7
LY6K (GeneID 54742)	1	1.39	1.6	1.39	1.2
PLLP (GeneID 51090)	1	0.87	0.72	0.89	1
MAGEL2 (GeneID 54551)	1	0.22	0.09	0.03	0.54
POLR3F (GeneID 10621)	1	0.31	0.32	0.34	0.25
MMP10 (GeneID 4319)	1	-0.4	-0.48	-0.43	-0.29
LOC107987397 (GeneID 107987397)	1	0.32	0.68	0.01	0.28
